Test [1] addresses furin (Homo sapiens, UniProt P09958). Nature of the test: Inhibition of furin activity, fluorescent substrate Pyr-RTKR-AMC. To be noted: read-out: IC50 Furin, Table S2. As to the method:
(§1) Inhibition of furin and hPC1/3 activity was measured in triplicate on Corning 3676 black 384-well assay plates by using a total volume of 20 µL and the following buffer conditions: 100 mM Hepes, 2 mM CaCl2, pH = 7.5. Pyr-RTKR-AMC (Peptide Institute, Inc., Osaka, Japan; catalog # 3159-v) was used as fluorescent substrate at 7 µM, while the furin concentration was 80 nM per reaction well. The steady-state rate of substrate hydrolysis was monitored continuously (excitation/emission wavelengths at 365/460 nm) at 25 °C using a VictorTMX5 plate reader (PerkinElmer, Waltham, MA, USA). Inhibition of trypsin from bovine pancreas was measured in triplicate on Corning 3676 black 384-well assay plates using a total volume of 20 µL and the following buffer conditions: 100 mM Hepes, 2 mM CaCl2, pH = 7.5. Pyr-RTKR-AMC (Peptide Institute, Inc., catalog # 3159-v) was used as fluorescent substrate at 7 µM, while the trypsin concentration was 10 nM per reaction well. Data analysis and curve fitting for all the enzymatic assays were performed using GraphPad Prism (version 4 for Windows, La Jolla, USA). Peptides and compound 1 were synthesized using standard solid phase peptide chemistry procedures and purified using HPLC at 95% purity (Figures S1 and S8; Supplementary Materials). Camostat (mesylate) was purchased from Cayman Chemicals (Ann Arbor, USA).

Sequences of proteins named here, by UniProt entry; tags and fusion partners are left off. Residues count along the entry.
UniProt P09958, 108-794 limits assumed: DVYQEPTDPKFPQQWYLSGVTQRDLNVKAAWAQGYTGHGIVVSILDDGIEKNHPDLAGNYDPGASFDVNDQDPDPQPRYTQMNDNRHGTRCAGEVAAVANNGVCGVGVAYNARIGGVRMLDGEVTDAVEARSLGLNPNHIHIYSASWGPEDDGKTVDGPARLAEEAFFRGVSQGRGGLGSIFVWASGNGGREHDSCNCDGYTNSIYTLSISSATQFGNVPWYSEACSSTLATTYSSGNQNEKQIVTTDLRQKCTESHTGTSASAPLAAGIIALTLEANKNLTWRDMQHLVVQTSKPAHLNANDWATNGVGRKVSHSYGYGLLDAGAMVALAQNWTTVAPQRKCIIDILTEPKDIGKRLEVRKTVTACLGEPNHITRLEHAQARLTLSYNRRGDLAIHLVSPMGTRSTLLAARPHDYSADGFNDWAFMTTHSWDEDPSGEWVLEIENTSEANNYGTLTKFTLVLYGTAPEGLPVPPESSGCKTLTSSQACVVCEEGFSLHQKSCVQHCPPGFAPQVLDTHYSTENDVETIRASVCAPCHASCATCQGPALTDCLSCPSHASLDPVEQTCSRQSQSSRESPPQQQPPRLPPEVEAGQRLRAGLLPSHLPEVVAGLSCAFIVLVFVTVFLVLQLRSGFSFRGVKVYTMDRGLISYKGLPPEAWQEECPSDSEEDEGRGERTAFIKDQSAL
UniProt P29120, 111-753 limits assumed: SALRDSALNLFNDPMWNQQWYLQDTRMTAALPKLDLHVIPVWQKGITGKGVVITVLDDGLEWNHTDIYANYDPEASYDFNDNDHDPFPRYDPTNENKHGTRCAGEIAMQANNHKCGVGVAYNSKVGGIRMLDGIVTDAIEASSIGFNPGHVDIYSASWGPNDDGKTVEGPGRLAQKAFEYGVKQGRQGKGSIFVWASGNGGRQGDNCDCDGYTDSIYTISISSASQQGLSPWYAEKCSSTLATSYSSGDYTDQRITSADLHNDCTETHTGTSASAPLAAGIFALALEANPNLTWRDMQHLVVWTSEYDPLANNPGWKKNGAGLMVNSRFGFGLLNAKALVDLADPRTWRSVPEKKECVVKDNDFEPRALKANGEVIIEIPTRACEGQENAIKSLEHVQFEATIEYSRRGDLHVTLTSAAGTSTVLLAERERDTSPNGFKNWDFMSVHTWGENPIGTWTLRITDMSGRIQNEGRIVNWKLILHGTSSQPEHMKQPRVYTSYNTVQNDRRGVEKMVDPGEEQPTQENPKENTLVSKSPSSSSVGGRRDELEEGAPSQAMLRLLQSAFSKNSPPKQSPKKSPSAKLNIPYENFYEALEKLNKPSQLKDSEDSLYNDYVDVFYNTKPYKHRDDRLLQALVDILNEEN
UniProt P16519, 110-638 limits assumed: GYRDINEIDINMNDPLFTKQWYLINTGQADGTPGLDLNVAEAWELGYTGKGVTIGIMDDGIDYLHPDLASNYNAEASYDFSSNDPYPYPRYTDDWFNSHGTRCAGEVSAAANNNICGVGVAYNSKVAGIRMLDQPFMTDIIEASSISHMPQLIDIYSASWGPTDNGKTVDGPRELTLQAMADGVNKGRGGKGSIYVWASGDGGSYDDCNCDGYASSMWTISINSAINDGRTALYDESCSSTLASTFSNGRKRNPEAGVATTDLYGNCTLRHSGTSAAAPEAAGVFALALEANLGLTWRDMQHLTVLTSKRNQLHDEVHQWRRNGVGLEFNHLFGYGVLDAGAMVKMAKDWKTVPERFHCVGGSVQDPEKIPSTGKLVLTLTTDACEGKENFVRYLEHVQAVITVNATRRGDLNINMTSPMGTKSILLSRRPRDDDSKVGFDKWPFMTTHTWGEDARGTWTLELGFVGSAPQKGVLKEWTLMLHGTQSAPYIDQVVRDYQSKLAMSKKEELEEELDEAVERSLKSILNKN
UniProt Q16549, 142-785 limits assumed: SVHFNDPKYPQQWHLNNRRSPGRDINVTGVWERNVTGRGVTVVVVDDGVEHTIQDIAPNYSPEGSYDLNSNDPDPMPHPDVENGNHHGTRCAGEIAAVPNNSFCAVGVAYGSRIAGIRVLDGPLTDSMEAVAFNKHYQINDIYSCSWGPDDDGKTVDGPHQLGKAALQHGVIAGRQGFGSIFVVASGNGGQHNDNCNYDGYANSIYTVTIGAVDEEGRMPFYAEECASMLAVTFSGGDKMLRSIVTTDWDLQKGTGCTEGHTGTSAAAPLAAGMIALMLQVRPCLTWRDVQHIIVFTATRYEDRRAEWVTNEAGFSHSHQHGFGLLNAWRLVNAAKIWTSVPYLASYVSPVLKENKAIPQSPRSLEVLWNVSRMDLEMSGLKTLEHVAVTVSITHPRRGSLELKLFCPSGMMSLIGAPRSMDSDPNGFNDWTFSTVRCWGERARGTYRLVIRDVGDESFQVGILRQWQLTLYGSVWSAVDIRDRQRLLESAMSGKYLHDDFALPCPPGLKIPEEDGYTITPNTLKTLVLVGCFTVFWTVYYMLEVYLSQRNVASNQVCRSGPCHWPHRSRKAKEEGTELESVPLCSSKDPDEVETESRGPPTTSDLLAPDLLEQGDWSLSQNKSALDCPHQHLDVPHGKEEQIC

Test [2] concerns the target hPC1/3 (Homo sapiens, UniProt P29120). Briefly: Inhibition of hPC1/3 activity, fluorescent substrate Pyr-RTKR-AMC. To be noted: read-out: IC50 hPC1/3, Table S2. As to the method: as §1
Test [3] deals with hPC2 (Homo sapiens, UniProt P16519). Nature of the test: Specificity for furin-like PCs: hPC2 inhibition. To be noted: read-out: IC50 hPC2, Table S2. As for the experimental part: as §1
The target in test [4] is hPC7 (Homo sapiens, UniProt Q16549). Nature of the test: Specificity for furin-like PCs: hPC7 inhibition. To be noted: read-out: IC50 hPC7, Table S2. As to the method:
as §1

The results in this text go back to article PMC7287953, “Potential Therapeutic Targeting of Coronavirus Spike Glycoprotein Priming” (Molecules, 2020).

Like-named read-outs stand apart in the source and are kept apart here. A value given as a limit tells only on which side of the number the result lay.

In the case of `CC(=O)N[C@@H](Cc1ccc(NC(=N)N)cc1)C(=O)N[C@H](C(=O)N[C@@H](CCCNC(=N)N)C(=O)NCc1ccc(C(=N)N)cc1)C(C)C`, the IC50 in test [1] (tested form: TFA or HCl) was 0.279 µM; in test [2] (tested form: TFA or HCl), 0.049 µM; in test [3] (tested form: TFA or HCl), 2.05 µM; in test [4] (tested form: TFA or HCl), 4.05 µM.
As for `CC(C)[C@H](NS(=O)(=O)Cc1ccc(C(=N)N)cc1)C(=O)N[C@@H](Cc1ccc(NC(=N)N)cc1)C(=O)NCc1ccc(C(=N)N)cc1`, the IC50 is 12.7 µM in test [1], 0.483 µM in test [2], > 30 µM in test [3] and 14 µM in test [4].
Taken in the same sequence, the figures for `CC(C)[C@H](NS(=O)(=O)Cc1ccc(C(=N)N)cc1)C(=O)N[C@@H](CCCNC(=N)N)C(=O)NCc1ccc(C(=N)N)cc1` were 0.338 µM, 0.014 µM, 1.17 µM and 3.19 µM.
